Consider eight molecules from US20250026813A1, “Antibodies against sars-cov-2 and uses thereof” (published 2025).

Several values for one entry are separate records, joined by “and”; a condition that tells them apart may be missing. Identical values can stand only once.

Experiment [1] addresses mutant SARS-CoV-2 spike on pseudovirus (mutant not identified) (SARS-CoV-2). In words: cell-based or functional assay.
Experiment [2] addresses mutant SARS-CoV-2 spike pseudovirus (mutant not specified). Briefly: cell-based or functional assay.
Experiment [3] addresses SARS-CoV-2 spike protein on live virus SARS-CoV-2 Victoria/01/2020 (SARS-CoV-2, UniProt P0DTC2 14-1273). Briefly: cell-based or functional assay.
The target in experiment [4] is SARS-CoV-2 spike protein on authentic virus carrying D614G (WA-1 strain) (SARS-CoV-2, UniProt P0DTC2 14-1273). In words: cell-based or functional assay.
In experiment [5] the target is SARS-CoV-2 spike receptor binding domain (RBD), antigen of Example 10 (SARS-CoV-2, UniProt P0DTC2 319-541). Briefly: HT-SPR (Carterra) epitope binning on RBD.
For experiment [6], the target named is SARS-CoV-2 spike receptor binding domain (Neil King, University of Washington) (SARS-CoV-2, UniProt P0DTC2 328-531). Briefly: SPR (Biacore 8K), IgG captured on anti-hFc chip, antigen as analyte, 25 C.
The target in experiment [7] is SARS-CoV-2 spike protein of the WA-1 strain live virus (carrying D614G) (SARS-CoV-2, UniProt P0DTC2 14-1273). In words: cell-based or functional assay.
Experiment [8] deals with SARS-CoV-2 spike protein receptor binding domain (RBD) (SARS-CoV-2, UniProt P0DTC2 319-541). In words: HT-SPR RBD epitope community assignment (Carterra).

B1: YANG-2207 (antibody, V domains shown)
VH: QMQLVQSGAEVKKPGASVKISCKTSGYTFTNYYMVWVRQAPGQGLEWMGIIKPSGGNTIYAQKFQGRVTMTRDTSTNTVYLDLSSLRSEDTAVYYCARTGNRAFDVWGHGTMVTVSS
VL: QSVLTQPPSVSAAPGQKVTISCSGSSSNIGNNFVSWYQQFPGTAPKLLIYDNNKRPSGIPDRFSGSKSGTSATLGITGLQTGDEADYYCGTWDSSLGAGVFGGGTKLTVL
In the case of B1, the “PV IC50 against mutant” value in experiment [1] amounted to 32.3 nM.

B2: YANG-1112 (antibody, V domains shown)
VH: QITLKESGPTLVKPTQTLTLTCTFSGFSLSTGGVAVGWIRQPPGKALEWLAIIYWDDDKRYSPSLKSRLTITKDTSKNQVVLTMTNMDPVDTATYYCAHWGKDSFDIWGQGTMVTVSS
VL: SYELTQPPSVSVSPGQTARITCSGDALPRKYAYWYQQKSGQAPVLVIYEDNNRPSGIPERFSGSSSGTTATLTVSGAQVEDEADYYCYSTDTSGYVVFGGGTKLTVL
B2: in experiment [2], the “PV IC50 against mutant” value came out at 0.34 nM.

B3: IMPI-017 (antibody, V domains shown)
VH: EVQLVESGGGLIQPGGSLRLSCAAAGLTVSSNYMNWVRQVPGKGLEWVSVIYSGGSTYYADSVKGRFTISRDNSKNTLYLQMNSLRAEDTAVYYCARDLGTLGMDVWGQGTTVTVSS
VL: DIQLTQSPSFLSASVGDRVTITCWASQGISTYLAWYQQKPGKAPKLLIYAASTLQSGVPSRFSGSGSGTEFTLTISSLQPEDFATYYCQQLNSYLPTFGQGTKVEIK
As to B3, the “IC50, live virus foci (plaque) reduction neutralisation assay on Vero cells” value in experiment [3] was 49 ng/ml and 326 pM.

B4: IMPI-063 (antibody, V domains shown)
VH: EVQLVESGGGVVRPGGSLRLSCAASGFTFDDYGMSWVRQAPGKGLEWVSGIYWNGGSTGYADSVKGRFTISRDNAKNSLYLQMNSLRAEDMALYYCARGVGATDYWGQGTLVTVSS
VL: EIVLTQSPGTLSLSSGERATLACRASESVRGSFLAWYQQKPGQAPRLLIYGASRRATGIPDRFSGSGSGTDFTLTISRLEPEDFAVYYCQQYGNSPMCSFGQGTKLEIK
Take B4: the “Live virus WA-1 strain IC50” value in experiment [4] turned out to be 10400 ng/mL. For the same molecule, the binding result in experiment [5] is reported as “no binding”.

B5: IMPI-063 (antibody, V domains shown)
VH: B4 VH
VL: B4 VL
As to B5, in experiment [6], the binding result is recorded as “no binding (tested: up to 100 nM)”.

B6: YANG-1118 (antibody, V domains shown)
VH: EVQLVESGGGLVKPGGSLRLSCAASGFTFSSYALNWVRQAPGKGLEWVSSISTGSSYIFYADSVKGRFTISRDNAKHSLSLQMNSLRAEDTAVYYCAKTGDLPFFDYWGQGTLVTVSS
VL: QSALTQPASVSGSPGQSITISCTGTSSDVGRYNYVSWYQQHPGKAPKLMIYEVSNRPSGVSNRFSGSKSGNTASLTISGLQAEDEADYYCISYTSSSTMVFGGGTKLTVL
Regarding B6, the “PV IC50 against mutant” value in experiment [2] came to 2.76 nM.

B7: YANG-2301 (antibody, V domains shown)
VH: QVHLIQSGAEVKKPGASVKVSCKVSGYTLIEVSVHWVRQAPGKGLEWMGGFDPEAAETIYAQKFQGRVTMTEDTSTDTAYMDLSSLKSEDSAVYYCAIGPAVTGRNSGEYYYYYGMDVWGQGTTVTVAS
VL: EIVMTQSPATLSVSPGERATLSCRASQSVNSNLAWYQQKPGQAPRLLIYAVSTRATGLPARFSGSGSGTEFTLTISSLQSEDFVVYYCHQYNNWPLTFGGGTKVEIK
Regarding B7, the “PV IC50 against mutant” value in experiment [1] came to 0.4 nM.

B8: IMPI-032 (antibody, V domains shown)
VH: QVQLQESGPGLVKPSGTLSLTCAVSGGSISSNKWWSWVRQPPGKGLEWIGEIDHSGSTMYNPSLKSRVTISVDKSKNQFSLKLNSVTAADTAVYYCTGEGYNWNYWGQGTRVTVSS
VL: DVVMTQSPLSLPVTLGQTASISCRSSQSLLYTDGNTYLSWFQQRPGQSPRRLIYKVSKWESGVPDRFSGSGSGTDFTLKISRVEAEDVGIYYCMQGTHWPLTFGGGTKVEIK
With B8, in experiment [7], the “Live virus WA-1 strain IC50” value was found to be 7520 ng/mL. Moreover, the binding result in experiment [8] is “no binding”.
